Experimental findings from publication PMC9728156 are described below.

The test system of this series is H-NS. Description: DNase I footprinting. The note with it: 10 mM HEPES, 100 mM KCl, 200 uM EDTA, 10% glycerol, pH 7.5, 30 C 30 min, 200 ng DNA in 50 ul; then 50 ul of 10 mM MgCl2/5 mM CaCl2 and DNase I at room temperature 1 min; recombinant protein; residues 1-135; protein details: C-terminal His; label: 32P (FP-leuO-R end); probe letters rebuilt from the primers and the genome.

For “GTCAGGAATAGATAACCTGTATTTCTTATATTTATCGCCCCCATCACTCTCAGGGCTCACTTCACTATCATTGAATTCATTGATGTTTAGCAACTAGATTGATAATTAATCACAATATTTTAGCCAATTATCATTTTTGTTGATTAAAAACATATATTTAAGCAAAACCTAAAAAACTATAAAAAACAGAAATACCCTCATAAGCAGCAATTATTGAGCTAAGTGATGTCTCATCACTTAACCCACTTAAAGCATTTATTACAACTATTGTTTAACCATCAAACCCAACAATCTCGTCAATATTAGCG (double strand) [leuO promoter 308 bp]”, the binding result was “binds”.
